Anti-infective test results gathered from many reports (values: NIAID ChemDB through PubChem).

All rows: tests in culture; organism: Herpes simplex virus 1; read by: cytopathic effect; measure: EC50

ECn is the concentration giving n% inhibition of infection, replication or growth. Blank or dashed fields: not listed here. Neighbouring rows are from separate reports.

structure	cells	strain	result
COc1nc(=O)n([C@H]2C[C@H](O)[C@@H](CO)O2)cc1/C=C/Cl	PRK	McIntyre	0.7 µg/mL
O=c1[nH]c(=O)n([C@H]2C[C@H](O)[C@@H](CO)O2)cc1C(F)(F)F	Human skin fibroblasts		1.3 µM
O=c1[nH]c(=O)n([C@H]2C[C@H](O)[C@@H](CO)O2)cc1/C=C/Br	PRK	B2006 (TK-)	300 µg/mL
CCc1c2c(CC)c(CN[C@H]3CCCC[C@@H]3N)c(CC)c1CN[C@H]1CCCC[C@@H]1NCc1ccc([nH]1)CN[C@H]1CCCC[C@@H]1NC2	Human embryonic lung fibroblasts	KOS	>20 µM
COc1cc(O)c2c(c1)/C=C/CCC[C@H](O)CCC[C@H](C)OC2=O	VERO	Strain F	>50 µM
Cc1[nH]c2nc3c(ncn3COCCO[Si](C)(C)C(C)(C)C)c(=O)n2c1C(c1ccccc1)(c1ccccc1)c1ccccc1		VMW 1837	10 µg/mL
COc1cc2c(cc1OC)[C@@H]1C(N)CSCON1CC2	E6SM	KOS	0.1 µg/mL
O=c1c2ncn(COC(CO)CO)c2nc2[nH]c(-c3ccccc3)cn12	E6SM	B2006 (TK-)	>30 µg/mL
CCc1cn([C@H]2C[C@H](O)[C@@H](CO)O2)c(=O)[nH]c1=O	HEP-2	KOS	0.8 µg/mL
COc1cc(O)c2c(c1)CCCCCC(=O)CCC[C@H](C)OC2=O	VERO	Strain F	>50 µM
N#Cc1cn([C@H]2C[C@H](O)[C@@H](CO)O2)c(=O)[nH]c1=O	Human skin fibroblasts		>700 µM
CC1(C)[C@@H](CCO)C[C@H]1n1cnc2c(N)nc(N)nc21	E6SM	TK-/VMW 1837	>400 µg/mL
Cc1cn([C@H]2C=C[C@@H](OC(C(=O)O)P(=O)(O)O)C2)c(=O)[nH]c1=O	HEL	KOS	>250 µM
COc1ccc(-c2cn3c(=O)c4ncn(COC(CO)CO)c4nc3[nH]2)cc1		F	0.005 µg/mL
CCc1cn([C@H]2C[C@H](O)[C@@H](COP(=O)(O)O)O2)c(=O)[nH]c1=O	BSC-1	B2006 (TK-)	>820 µg/mL
Cc1cn([C@@H]2C[C@H](OC(C(=O)O)P(=O)(O)O)[C@@H](O)[C@H]2O)c(=O)[nH]c1=O	HEL	KOS	>250 µM
COc1ccc2[nH]c3c(c2c1)CCN1OCSCC(N)[C@@H]31	PRK	B2006 (TK-)	0.04 µg/mL
CC1(C)[C@@H](CCO)C[C@H]1n1nnc2c(N)nc(N)nc21	E6SM	TK-/VMW 1837	100 µg/mL
CCCNCc1ccc(CNCc2c(CC)c(CNCc3ccc(CNCCC)[nH]3)c(CC)c(CNCc3ccc(CNCCC)[nH]3)c2CC)[nH]1	Human embryonic lung fibroblasts	TK- KOS ACVr	>20 µM
Nc1nc2c(ncn2[C@@H](CCO)SCCO)c(=O)[nH]1	HFF		>200 µM
CC1(C)[C@@H](CCO)C[C@H]1n1nnc2c(N)ncnc21	E6SM	TK-/B2006	70 µg/mL
Cc1cn(C(CCO)SCCO)c(=O)[nH]c1=O	HFF		>200 µM
Cc1cn([C@@H]2C[C@H](O)[C@@H](CO)S2)c(=O)[nH]c1=O	VERO	E-377	110.1 µg/mL
c1c[nH]c(CNCc2cc(CNCc3ccc[nH]3)c(CNCc3ccc[nH]3)cc2CNCc2ccc[nH]2)c1	Human embryonic lung fibroblasts	KOS	>100 µM
CC(=O)OCCOCn1cnc2c(=O)n3cc(-c4ccc5ccccc5c4)[nH]c3nc21		KOS	>16 µg/mL
CCc1cn([C@H]2C[C@H](O)[C@@H](CO)O2)c(=O)[nH]c1=O	PRK	F	0.7 µg/mL
c1c[nH]c(CNCc2cc(CNCc3ccc[nH]3)cc(CNCc3ccc[nH]3)c2)c1	Human embryonic lung fibroblasts	KOS	>20 µM
Nc1nc(=O)n([C@H]2C[C@H](O)[C@@H](CO)O2)cc1/C=C\Cl	PRK	KOS	0.7 µg/mL
O=c1c2ncn(COCCO)c2[nH]c2ncc(CO)n12		McIntyre	>3.2 µg/mL
CON1CCc2c([nH]c3ccccc23)[C@@H]1[C@@H](N)CSC	PRK	KOS	>100 µg/mL
O=c1c2ncn(COCCO)c2[nH]c2ncc(C(c3ccccc3)(c3ccccc3)c3ccccc3)n12		KOS	>16 µg/mL
COC(=O)C[C@@H](SCCO)n1cnc2c(Cl)nc(N)nc21	HFF		>200 µM
CC1(C)[C@@H](CCO)C[C@H]1n1cnc2c(N)ncnc21	E6SM	KOS	>400 µg/mL
O=c1[nH]c(=O)n([C@H]2C[C@H](O)[C@@H](CO)O2)cc1Cl	Human skin fibroblasts		0.76 µM
C[C@H]1C/C=C/C(O)C/C=C/C(=O)Cc2c(Cl)c(O)cc(O)c2C(=O)O1	VERO	Strain F	6 µM